Article PMC7181871, “Cryo-EM structure of the PlexinC1/A39R complex reveals inter-domain interactions critical for ligand-induced activation” (2020)

Biological target: full-length human PlexinC1 (residues 1–1568), purified, human, O60486 35-1568

“A39R (residues 15–399) from ectromelia virus, His8-tagged N-glycosylated (3 consensus motifs of N-glycosylation)” was tested. Which stoichiometry N (a39r per plexinc1 (2:2)) did it give?
Its stoichiometry N (a39r per plexinc1 (2:2)) is 1.
